Source: paper PMC5603512, “Discovery, Semisynthesis, Antiparasitic and Cytotoxic Evaluation of 14-Membered Resorcylic Acid Lactones and Their Derivatives” (Scientific Reports, 2017)
Values joined by “and” are separate entries in the source; they are usually repeats but may differ in a detail not shown here. Equal values may be shown once.

Legend:
Leishmania donovani = assay: Antileishmanial assay (PicoGreen); assay type: cell-based; details: Selectivity Index (CC50/IC50), CC50 on Vero cells
Method: The anti-leishmania activity was evaluated following the protocol described by Calderon et al.[39], using the fluorescent DNA intercalator PicoGreen (Invitrogen, USA). The species responsible for visceral leishmaniasis, L. donovani, was used for the assays.

Plasmodium falciparum = assay: Antiplasmodial assay (PicoGreen growth inhibition in infected human erythrocytes); assay type: cell-based; details: for Plasmodium falciparum SI: Selectivity Index (CC50/IC50), CC50 on Vero cells
Method: Activity against the causative agent of malaria was performed by culturing human erythrocytes and infecting them with P. falciparum, as described by Trager and Jensen[36]. Briefly, the W2 (Chloroquine resistant) and 3D7 (Chloroquine sensitive) strains of P. falciparum were cultured in RPMI 1640 medium (Sigma-Aldrich, USA) supplemented with 10% human serum (from O+ blood) at a hematocrit of 2% erythrocytes (O+) at 37 °C in a gas mixture of 5% CO2, 5% O2, and 90% N2. Parasites were synchronized by a temperature cycling technique as described by Almanza et al.[37]

Row | Compound | Leishmania donovani SI (Leishmania donovani) | Plasmodium falciparum SI (Plasmodium falciparum) | Improvement of antiplasmodial IC50 over compound 13 (Plasmodium falciparum; 11 versus 13) | Higher therapeutic ratio than compound 13 (Plasmodium falciparum; 12 versus 13, CC50/IC50) [fold]
1 | COc1cc2c(c(OC(C)=O)c1)C(=O)O[C@@H](C)C/C=C/C(=O)[C@@H](OC(C)=O)[C@H](OC(C)=O)C/C=C/2 [Compound 24] | <1 |  |  | 
2 | COc1cc(O)c2c(c1)/C=C/C[C@H](O)[C@H](O)C(=O)/C=C\C[C@H](C)OC2=O [Compound 7] | <1 | <1 |  | 
3 | COc1cc2c(c(OC(C)=O)c1)C(=O)O[C@@H](C)C/C=C/C(=O)[C@@H](OC(C)=O)[C@@H](OC(C)=O)C/C=C/2 [Compound 21] | 2 |  |  | 
4 | COc1cc2c(c(OC(=O)c3cccs3)c1)C(=O)O[C@@H](C)C/C=C/C(=O)[C@@H](OC(=O)c1cccs1)[C@@H](OC(=O)c1cccs1)C/C=C/2 [Compound 22] | 4 | <1 |  | 
5 | COc1cc(O)c2c(c1)/C=C/C[C@H](O)[C@@H]1OC(C)(C)O[C@H]1/C=C/C[C@H](C)OC2=O [Compound 1, cochliomycin A] |  | 3 |  | 
6 | COc1cc2c(c(OC(C)=O)c1)C(=O)O[C@@H](C)C/C=C/[C@H](OC(C)=O)[C@@H](OC(C)=O)[C@@H](OC(C)=O)C/C=C/2 [Compound 13] |  | 61 |  | 
7 | COc1cc(O)c2c(c1)/C=C/C[C@H](O)[C@H](O)C(=O)/C=C/C[C@H](C)OC2=O [Compound 6] | 2 | <1 |  | 
8 | COc1cc2c(c(OC(C)=O)c1)C(=O)O[C@@H](C)C/C=C/[C@@H]1OC(C)(C)O[C@H]1[C@@H](OC(C)=O)C/C=C/2 [Compound 11] | 37 | > 180 and 184 | approximately 4 fold | 
9 | COc1cc(O)c2c(c1)C=CCC1OC(C)(C)OC1C(=O)C=CCC(C)OC2=O (stereo not drawn) [Compound 26] | <1 | <1 |  | 
10 | COc1cc(O)c2c(c1)/C=C/C[C@H](OC(C)=O)[C@H](OC(C)=O)C(=O)/C=C\C[C@H](C)OC2=O [Compound 27] | <1 |  |  | 
11 | COc1cc(O)c2c(c1)/C=C/C[C@@H]1OC(C)(C)O[C@@H]1C(=O)/C=C/C[C@H](C)OC2=O [Compound 20] | <1 |  |  | 
12 | COc1cc2c(c(OC(=O)c3ccco3)c1)C(=O)O[C@@H](C)C/C=C/[C@H](OC(=O)c1ccco1)[C@@H](OC(=O)c1ccco1)[C@@H](OC(=O)c1ccco1)C/C=C/2 [Compound 15] |  | 71 |  | 
13 | COc1cc(O)c2c(c1)/C=C/C[C@H](OC(C)=O)[C@H](OC(C)=O)[C@@H](OC(C)=O)/C=C/C[C@H](C)OC2=O [Compound 12] | 97 | > 180 and 182 |  | 3
